According to article PMC3928424:
pIC50: −log10 of the molar value.

Molecular target: NA of H1N1 I222V mutant (isolate 1) (Influenza A virus, UniProt A0A1U9HZA1, I223V)

CC(=O)N[C@H]1[C@H]([C@H](O)[C@H](O)CO)OC(C(=O)O)=C[C@@H]1N=C(N)N
pIC50: 8.07
